Experimental data from patent US20150086555A1 (THERACLONE SCIENCES, published 2015).

Tests used:
[1] = molecular target: hemagglutinin (HA) of influenza A/Solomon Islands/3/06 (H1N1) on whole virions (Influenza A virus A/Solomon …)
[2] = molecular target: T1, hemagglutinin (HA) of influenza A/Wisconsin/67/05 (H3N2) on whole virions (Influenza A virus …); test: ELISA; BCC supernatant on coated inactivated whole virions
T1 construct: whole, on cells

Row | Binder | ELISA virus binding (OD450) [1] [OD450] | ELISA virus binding (OD450) [2] [OD450]
1 | TCN-531 (5091_H13) (antibody, V domains shown) VH: EVQLVESGGDLVQPGRSLKLSCTGSGFTFGDYGVTWVRQAPGKGLEWVGFIRTRPWGGTADTAASVKGRFTISRDDSKSLAYLQMNSLKTEDTAVYYCCRDAPPNVEVASMTNWYFDLWGRGTLVTVSS VL: DIQLTQSPSSLSASVGDRVTITCRASQGILNCLAWYQQKPGKVPNLLMYAASTLQSGVPSRFSGSGFGTDFTLTISSLQPEDVATYYCQTYGGVSTFGGGTKVEIR | 3.23 | 3.45
2 | TCN-539 (5056_A08) (antibody, V domains shown) VH: QVQLVESGGGVVQPGRSLRLSCAASEITFITYAMHWVRQAPGKGLEWVALISDDGSNKFYADSVKGRFTISRDNSKNTLYLQMNSLRAEDTAAYYCAREGVYFDSGTYRGYFDYWGQETLVTVSS VL: EIVLTQSPATLSLSPGERATLSCRASQSVSSYLAWYQQKPGQAPRLLIYDASNRATGIPARFSGSGSGTDFTLTISSLEPEDFAVYYCQQRSHWPPITFGQGTRLEIK | 0.06 | 2.85
3 | TCN-528 (5087_P17) (antibody, V domains shown) VH: QVQLVQSGSEVKKPGASVKVSCKASGYTFTNYDINWIRQAPGQGLEWMGWINPNSGTTGSAQRFQGRVTITVDTSITTVYMELSSLRSDDTAIYYCARGRELLRLQHFLTDSQSERRDCFDPWGQGTLVTVSS VL: DIQMTQSPSSLSASVGDRVTITCRANQDIGIYLNWYQQNPGKVPKLLLHGASSLQGGVPSRFSASGSGTDFTLTIHSLQPEDLATYYCQQSRRLPYTFGQGTRVELK | 3.62 | 0.24
4 | TCN-534 (5249_B02) (antibody, V domains shown) VH: QVQLVQSGAEVKKPGSSVKVSCRESGGTFNGYTITWVRQAPGQGLEWMGGIIPMMGTVNYAQKLQGRVTITTDYFTKTAYMDLNNLRSEDTAMYYCVKIRYTGQQLLWGQGTLVTVSS VL: DIQMTQSPSTLSASIGDRVTITCRASQSIASWLAWYQQKPGKAPKLLIYEAVNLESGVPSRFSGSGSGTDFTLTISSLQPDDFATYFCQHYGTISQTFGGGTKVEIK | 3.55 | 0.07
5 | TCN-532 (5262_H18) (antibody, V domains shown) VH: QVQLQESGPGLVKPSETLSLTCTVSGGSVSSETYYWSWIRQPPGKGLEWIGYIYYIGNTDYRPSLKSRVTISLDTSKNQFSLKLSSVTAADTAVYYCARGAYYDSSGYPAFYIWGQGTMVTVSS VL: QSVLTQPPSVSGAPGQRVTISCTGSSSNIGSDYDVHWYKQLPGTAPKLLIFGNSNRPSGVPDRFSGSKSGTSASLAITGLQAEDEADYYCQSYDSSLSGFHVFGSGTKVTVL | 0.06 | 3.67
6 | TCN-537 (3194_D21) (antibody, V domains shown) VH: QVQLQQWGSGLLKPSETLSLTCAVYGGSFRDDYWTWIRQPPGKGLEWIGEINHSGRTNYNPSLKSRVTISVDTSLKQFSLKVISVTAADTAVYYCARGTSHVSRYFDWLPPTNWFDPWGQGTQVTVSS VL: DIVLTQSPGTLSLSPGERATLSCRASQSVSSSYLAWYQQKPGQAPRLVMYGAATRATGIPDRFSGSGSGPDFTLTISRLEPEDFAMYYCQQYGNSPITFGQGTRLEIK | 3.24 | 0.06
7 | TCN-542 (5079_A16) (antibody, V domains shown) VH: QVQLQESGPGLVKPSQTLSLTCTVSGGSISSGNYYWNWVRQHPGKGLEWIGYIYYRGSTFYNPSLKSRVTISIDTSKNQFSLRLSSVTAADTAVYYCAKDTRSSLDNYQYGMDVWGQGTTVTVSS VL: QTVVTQEPSLTVSPGGTVTLTCASSTGAVTSSYFPNWFQQKPGQAPRPLIYSTTIRHSWTPARFSGSLLGGKAALTLSGVQPEDEADYYCLLYSGGDPVAFGGGTKLTVL | 3.66 | 3.13
8 | TCN-540 (5060_F05) (antibody, V domains shown) VH: QVQLVQSGGGVVQPGRSLRLSCAASGFTFSSYAMHWVRQAPGKGLEWVAIISYDGNDQYYTDSVKGRFTISRDSSKVYLQMHRLRPEDTAVYYCAKEFETSGYFHGSFDYWGQGILVTVSS VL: QSALTQPASVSGSPGQSITISCTGTSSDVGGYNYVSWYQQHPGKAPKLLIYEVTNWPSGVSNRFSGSKSGNTASLTISGLQAEDEADYYCSSYAGSSTWVFGGGTRVTVL | 0.07 | 3.65
9 | TCN-564 (5256_A17b) (antibody, V domains shown) VH: QVQLVQSGADVKKPGSSVTVSCKASGGSFSNYGINWVRQAPGQGLEWMGGIIPLINAPNYAPKFQGRVTITADMFSNIVSLQLTSLRTDDTAVYYCARRKMTTAIDYWGQGTLVTVSS VL: QPVLSQPPSASASLGASVTLTCTLSSGFDNYQVAWYQQRPGKGPRFVMRVGNGGNVASKGDGIPDRFSVSGSGLNRYLTIKNIQEDDESDYYCGADHGSGNNFVSPYVFGGGTKLTVL | 3.54 | 0.1
10 | TCN-533 (5256_A17a) (antibody, V domains shown) VH: QVQLVQSGADVKKPGSSVTVSCKASGGSFSNYGINWVRQAPGQGLEWMGGIIPLINAPNYAPKFQGRVTITADMFSNIVSLQLTSLRTDDTAVYYCARRKMTTAIDYWGQGTLVTVSS VL: QPVLTQPPSASASLGASVTLTCTLSSAYSNYKVDWYQQRPGKGPRFVMRVGTGGIVGSKGDGIPDRFSVLGSGLNRYLTIKNIQEEDESDYHCGADHGSGSNFVSPYVFGGGTKLTVL | 3.54 | 0.1
11 | TCN-522 (3212_I12) (antibody, V domains shown) VH: QVQLQQWGAGLLKPSETLSLTCTVSGGSLTDYSWNWIRQPPGKGLEWIGDTLHNGYTNYNPSLRGRVSISIDTSKNQVSLRLTSVTAADTALYYCARGSGGYGGFDYFGKLRTWDFWGQGTLVTVSS VL: DIQLTQSPSSLSASVGDRVTITCRASQGIRNDLGWYQQKPGNAPKRLIFGASSLQSGVPSRFSGSGSGTEFTLTISSLQPEDFATYYCLQHNSYPYTFGQGTKLEIK | 2.12 | 0.07
12 | TCN-523 (5248_A17) (antibody, V domains shown) VH: QVQLVQSGAEVKKPGSSVKVSCKASGGSFSNYAFSWVRQAPGQGLEWMGGTIPLLGTTNYAQKFQGRVTISADQFTSTAYMELGSLRSEDTAVYYCTRRKMTTAFDSWGQGTLVTVSS VL: QPVLTQPPSASASLGASVTLTCTLSSAYSNYKVDWYQQRPGKGPRFVMRVGTGGIVGSKGDGIPDRFSVLGSGLNRYLTIKNIQEEDESDYHCGADHGSGSNFVSPYVFGGGTKLTVL | 3.47 | 0.08
13 | TCN-538 (3206_O17) (antibody, V domains shown) VH: QITLKESGPTLVKPTQTLTLTCVFSGFSLSITGVRVGWIRQPPGKALEWLALISWDDEKHYSPSLQSRLTITKDTSKNQVVLTMTNLDPVDTATYYCARSTDRGHVLRYFGWMLPGDAFDVWGQGTMVTVSS VL: DIVMTQSPDFLPVSLGERATINCKSSQRVLYSSNNKNYLAWYQLKPGQPPKLIIYWASTRESGVPDRFSGSGSGTEFTLTISSLQAEDVAVYYCQQYYSRPYTFGQGTKLEIK | 3.47 | 0.07
14 | TCN-529 (5297_H01) (antibody, V domains shown) VH: QITLRESGPTLVKPTQTLTLTCTFSGFSLSTNGVNVGWIRQPPGKALEWLALIYWDDDKRYSPSLKRRLTITKDTSKNQVVLTLTNMDPVDTATYYCAHRPDFYGDFEYWGPGTLVTVSS VL: QSALTQPASVSGSPGQSITISCTGSSSDIGGYNYVSWYQQHPGKAPKLMIYDVNNRPSGVSNRFSGSKSGNTASLTISGLQTDDEADYYCGSYTGSPHYVFGTGTKVTVL | 0.07 | 3.62
15 | TCN-535 (5246_P19) (antibody, V domains shown) VH: QVQLVQSGSEVKKPGTSVKVSCTASGSVFTNYGISWVRQAPGQGLEWMGGIIPLFGAAKYAQKFQGRVTITADESTKTVYMELSRLTSKDTAIYFCAKAPRVYEYYFDQWGQGTPVTVSS VL: EIVLTQSPGTLSLSPGERATLSCRASQSVSSSQLAWYQQKPGQAPRLIIYGASTRATGIPDRFSGSGSGTDFTLTIGRLEPEDFAVFFCQQYSTSPPTFGQGTKVDFK | 3.43 | 0.08
16 | TCN-536 (5095_N01) (antibody, V domains shown) VH: QVQLQQWGAGLLKPSETLSLTCAVYGGSFSVSGYYWSWIRQPPGRGLEWIGEISHGGSTNYNPSLKSRVTISVDTTKNQFSLRLSSVTAADTAVYYCARGTDPDTEVYCRVGNCAAFDYWGQGSLVTVSS VL: EIILAQSPGTLSLSPGERATLSCRASQFVSTRSLAWYQQRPGQAPRLLIYGASSRATGIPDRFSGSGSGTDFTLTISRLEPEDFAVYYCQHYGYSPRYAFGQGSKVEIK | 3.63 | 3.66
17 | TCN-527 (5086_C06) (antibody, V domains shown) VH: QVQLQESGPGLVKPSETLSLNCAVSGGSISNYYWSWIRQPPGKGLEWIGYISYNGRPKYNPSLTSRVTISVDTSKDQFSLELRSVTAADTALYYCARETRFGELLSPYDAFEIWGQGTMVTVSS VL: DIQMTQSPSSLSASVGDRVTMTCRASQNIRSYLNWYQQRPGTAPKLLIYAASTLHSGVPSRFSGGGSGTDFTLTINNLQPEDFASYYCQQSYDNPQTFGQGTKVEIK | 3.03 | 0.07
18 | TCN-530 (5248_H10a) (antibody, V domains shown) VH: QVQLVQSGAEVRKPGSSVKVSCKASGGPFMSYAIGWVRQAPGQGLEWMGGINPVFGRPHYAQKFQGRVTIATDDSTKTSYMELSSLTSEDTGMYYCASRYSRSSPGTFESWGQGTLVTVSS VL: EIVMTQFPATLSVSPGERVTLSCRASQSVSNNLAWYQQKPGQPPRLLIYDASTRATGVPAKFSGTGSGTEFTLSISSLQSEDFAVYYCQQYHNWPPSYSFGLGTKLEIK | 3.52 | 0.06
19 | TCN-544 (5082_A19) (antibody, V domains shown) VH: QVQLQESGPGLVKPSETLSLTCTVSRGSIGHYFWSWIRQPPGKGLEWIGYISYSGSTKYNPSLRSRVTISVDTSKNQFSLNLNSVTATDTALYYCAREDYDILTGAGPGMEVWGQGTTVTVSS VL: QSMLTQPPSASGTPGQRVTISCSGSSSNIGSNTVNWFKHLPGTAPKLLIYRNDLRPSGVPDRFSGSKSGTSASLAISGLQSEDEADYYCATWDDSLNGFYVFGTGTKVTVL | 0.32 | 2.71
